Compound potency records, mixed from different reports. Data source: NIAID ChemDB in PubChem.

Common to all: growth or infection tests; species: HIV-1; measure: EC50

Lines come from different laboratories, so protocols vary.

smiles | method | mutations | strain or isolate | cells | result
N#CC1=CC2Nc3ccccc3C2N(c2ccc([N+](=O)[O-])cc2)C1=O | GFP / fluorescence |  | D-92UG046 | HeLa | 1 µM
CCC(=O)c1ccc(F)c([C@@H]2C[C@@H]2NC(=O)Nc2ccc(C#N)cn2)c1O | β-galactosidase / luminescence | NNRTI-resistant (RT G190A) | LAI | TZM-bl | 0.0004 µM
Cc1cc(S(N)(=O)=O)ccc1NC(=O)COc1ccc(Cl)cc1C(=O)c1cc(F)cc(C(F)(F)F)c1 | β-galactosidase |  | WTRVA | HeLa + HELA CD4+ | <0.01 µM
Cc1nnc(-c2ccc(C(=O)NC[C@H](O)[C@@]34CC[C@]5(C)[C@H](CC[C@@H]6[C@@]7(C)CC[C@H](OC(=O)[C@H]8C[C@@H](C(=O)O)C8(C)C)C(C)(C)[C@@H]7CC[C@]65C)C3=C(C(C)C)C(=O)C4)cc2)o1 | p24 / ELISA |  | 92HT599 | MT-2 | <1 µM
CC(C)CN(C[C@@H](O)[C@H](Cc1ccccc1)NC(=O)O[C@H]1CO[C@H]2OCC[C@H]21)S(=O)(=O)c1ccc2nc(NC3CCN(C4CCCC4)CC3)sc2c1 | reporter gene |  | LAI | MT-4 | 14.2 nM
CC(C)C1=C2[C@H]3CC[C@@H]4[C@@]5(C)CC[C@H](OC(=O)[C@H]6C[C@@H](C(=O)O)C6(C)C)C(C)(C)[C@@H]5CC[C@@]4(C)[C@]3(C)CC[C@@]2([C@@H](O)CNC(=O)CN2CCS(=O)(=O)CC2)CC1=O | p24 / ELISA |  | 92HT599 | MT-2 | <1 µM
Cc1ncc(-c2cnc(OCC3CC3)c(F)c2)c(N2CCC(C)(C)CC2)c1[C@H](OC(C)(C)C)C(=O)O | luminescence |  | NL4-3 | MT-2 | 0.0033 µM
O=C(COc1ccc(Cl)cc1C(=O)c1cc2ccccc2o1)Nc1ccccc1 | cytopathic effect / propidium iodide |  | IIIB | MT-4 | 0.011–0.1 µM
CC(C)C1=C2[C@H]3CC[C@@H]4[C@@]5(C)CC[C@H](OC(=O)[C@H]6C[C@@H](C(=O)O)C6(C)C)C(C)(C)[C@@H]5CC[C@@]4(C)[C@]3(C)CC[C@@]2(CC(=O)NCc2cccc(Cl)c2)CC1=O | p24 / ELISA |  | 92HT599 | MT-2 | <1 µM
CC1(C)CC=C(c2cn(-c3nccc(C(=O)NC4CCC(N5CC6CCC(C5)O6)CC4)n3)c3ccc(F)c([C@H](OC(C)(C)C)C(=O)O)c23)CC1 | luminescence | A128T | NL4-3 | MT-4 | 0.019 µM
Cc1cc(S(N)(=O)=O)ccc1NC(=O)COc1ccc(Cl)cc1C(=O)c1cc(F)cc(C#N)c1 | β-galactosidase | RT-L100I | HXB2 | HeLa + HELA CD4+ | <0.01 µM
Cc1ccc(OCCNc2ccc(-c3cnc(C)c([C@H](OC(C)(C)C)C(=O)O)c3N3CCC(C)(C)CC3)nc2)c(C)c1 | luminescence |  | NL4-3 | MT-2 | 0.0008 µM
[2H]C(CNC[C@H](O)[C@@]12CC[C@]3(C)[C@H](CC[C@@H]4[C@@]5(C)CC[C@H](OC(=O)[C@H]6C[C@@H](C(=O)O)C6(C)C)C(C)(C)[C@@H]5CC[C@]43C)C1=C(C(C)C)C(=O)C2)NC(=O)c1ccc(Cl)cc1 | p24 / ELISA |  | 92HT599 | MT-2 | <1 µM
Cc1cc(OCCN(C)c2ccc(-c3cnc(C)c([C@H](OC(C)(C)C)C(=O)O)c3N3CCC(C)(C)CC3)nc2)ccc1F | luminescence |  | NL4-3 | MT-2 | 0.004 µM
Cc1cc(C#N)cc(C(=O)c2cc(Cl)ccc2OCC(=O)Nc2ccc(OCCCN3CC=CC3)cc2C)c1 | β-galactosidase | RT-K103N V108I | HXB2 | HeLa + HELA CD4+ | <0.01 µM
Cc1ncc(-c2cnc(OCCOc3ccc(Cl)cc3F)c(F)c2)c(N2CCC(C)(C)CC2)c1[C@H](OC(C)(C)C)C(=O)O | luminescence |  | NL4-3 | MT-2 | 0.0019 µM
Cc1cc(C#N)cc(C(=O)c2cc(Cl)ccc2OCC(=O)Nc2cnc(S(N)(=O)=O)cc2C)c1 | β-galactosidase | RT-Y181C | HXB2 | HeLa + HELA CD4+ | <0.01 µM
Cc1ncc(-c2ccc(OCC3CC3)nc2)c(N2CCC(C)(C)CC2)c1[C@H](OC(C)(C)C)C(=O)O | luminescence |  | NL4-3 | MT-2 | 0.007 µM
CC(C)C1=C2[C@H]3CC[C@@H]4[C@@]5(C)CC[C@H](OC(=O)[C@H]6C[C@@H](C(=O)O)C6(C)C)C(C)(C)[C@@H]5CC[C@@]4(C)[C@]3(C)CC[C@@]2(CC(=O)NC[C@@H](NC(=O)c2ccc(Cl)cc2)C(C)O)CC1=O | p24 / ELISA |  | 92HT599 | MT-2 | <1 µM
Cc1cc(S(N)(=O)=O)ccc1NC(=O)COc1ccc(Cl)cc1C(=O)c1cccc(C#N)n1 | β-galactosidase | RT-K103N V108I | HXB2 | HeLa + HELA CD4+ | <0.01 µM
Cc1cn(-c2ccc(C(=O)NCC[C@@]34CC[C@]5(C)[C@H](CC[C@@H]6[C@@]7(C)CC[C@H](OC(=O)[C@H]8C[C@@H](C(=O)O)C8(C)C)C(C)(C)[C@@H]7CC[C@]65C)C3=C(C(C)C)C(=O)C4)cc2)cn1 | p24 / ELISA |  | 92HT599 | MT-2 | <1 µM
Cc1ncc(-c2cnc(OC(C)C(C)OCc3ccccc3)c(F)c2)c(N2CCC(C)(C)CC2)c1[C@H](OC(C)(C)C)C(=O)O | luminescence |  | NL4-3 | MT-2 | 0.0071 µM
Cc1cc(OCCCN2CCOCC2)ccc1NC(=O)COc1ccc(Cl)cc1C(=O)c1cccs1 | cytopathic effect / propidium iodide |  | IIIB | MT-4 | 0.011–0.1 µM
CC(=O)c1c(C)nc(-c2ccccc2)nc1NC(=O)c1ccccc1 | GFP / fluorescence |  | 2AG | HeLa | >50 µM
Cc1ccc(OCCNc2ccc(-c3cnc(C)c([C@H](OC(C)(C)C)C(=O)O)c3N3CCC(C)(C)CC3)nc2)cc1C | luminescence |  | NL4-3 | MT-2 | 0.0032 µM
Cc1nc2ccccc2c(-c2cc(F)c3c(c2C)CCCO3)c1[C@H](OC(C)(C)C)C(=O)O | luminescence | T124A/T125A | NL4-3 | MT-4 | 0.0079 µM

Repeating the first 3 entries:

smiles	method	mutations	strain or isolate	cells	result
N#CC1=CC2Nc3ccccc3C2N(c2ccc([N+](=O)[O-])cc2)C1=O	GFP / fluorescence		D-92UG046	HeLa	1 µM
CCC(=O)c1ccc(F)c([C@@H]2C[C@@H]2NC(=O)Nc2ccc(C#N)cn2)c1O	β-galactosidase / luminescence	NNRTI-resistant (RT G190A)	LAI	TZM-bl	0.0004 µM
Cc1cc(S(N)(=O)=O)ccc1NC(=O)COc1ccc(Cl)cc1C(=O)c1cc(F)cc(C(F)(F)F)c1	β-galactosidase		WTRVA	HeLa + HELA CD4+	<0.01 µM

An empty or dashed field is not shown. ECn: concentration that inhibits the pathogen or its effect by n%. a–b is a range or a potency band.